Experimental data as given in ChEMBL document CHEMBL4602733 (J Med Chem, 2020).

Sequences of proteins named here, by UniProt entry; tags and fusion partners are left off. A change or cut given only in a name is not applied to a line headed by its entry.
UniProt Q9H3N8: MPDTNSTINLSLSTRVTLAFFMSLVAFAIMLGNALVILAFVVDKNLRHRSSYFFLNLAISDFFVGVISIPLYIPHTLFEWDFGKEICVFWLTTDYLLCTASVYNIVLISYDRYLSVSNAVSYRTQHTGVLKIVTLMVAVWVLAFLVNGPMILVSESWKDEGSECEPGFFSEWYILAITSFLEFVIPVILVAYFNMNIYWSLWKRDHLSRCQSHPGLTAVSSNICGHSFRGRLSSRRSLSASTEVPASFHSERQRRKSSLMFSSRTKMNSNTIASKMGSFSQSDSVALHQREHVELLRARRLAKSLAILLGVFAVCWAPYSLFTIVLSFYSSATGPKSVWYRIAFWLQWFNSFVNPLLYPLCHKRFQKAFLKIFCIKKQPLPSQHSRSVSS

Columns and labels:
Assay in all cases: biochemical
Histamine H4 receptor [1] = biological target: T1, Histamine H4 receptor (Homo sapiens, UniProt Q9H3N8)
Histamine H4 receptor [2] = biological target: T1, Histamine H4 receptor; remark: listed apart in the source
Histamine H4 receptor [3] = biological target: T1, Histamine H4 receptor; remark: listed apart in the source
Histamine H4 receptor [4] = biological target: T1, Histamine H4 receptor; remark: listed apart in the source
Histamine H4 receptor [5] = biological target: T1, Histamine H4 receptor; remark: listed apart in the source

Measured: Ki

NC(=NCc1ccc(Cl)cc1)SCCCc1cnc[nH]1 [CLOBENPROPIT]
5.01 to 50.1 nM: Histamine H4 receptor [1] | Histamine H4 receptor [2] | Histamine H4 receptor [3] | Histamine H4 receptor [4] | Histamine H4 receptor [5]
